Measured values published in article PMC8469817, “Synthesis and Decontamination Effect on Chemical and Biological Agents of Benzoxonium-Like Salts” (2021).

Key:
Conditions in all cases: 5 min exposure
[1] = system: Francisella tularensis LVS; assay: Flow cytometry susceptibility assay
[2] = system: Murine cytomegalovirus (MCMV); assay: Virucidal quantitative suspension test
[3] = system: SARS-CoV-2; assay: Virucidal quantitative suspension test

Row | SMILES | elimination of bacteria ([1]; concentration 0.1%) | ΔlogTCID50 (MCMV) ([2]; 0.1%) | elimination of bacteria ([1]; concentration 0.01%) [%] | elimination of bacteria ([1]; concentration 0.05%) [%] | ΔlogTCID50 (MCMV) ([2]; 0.01%) | ΔlogTCID50 (SARS-CoV-2) ([3]; 0.1%) | ΔlogTCID50 (SARS-CoV-2) ([3]; 0.01%)
1 | CCCCCCCCCCCC[N+](CCO)(CCO)Cc1ccccc1.[Cl-] | even better effect compared to ethanol | > 3.34 ^a |  |  |  |  | 
2 | CCCCCCCCCCCCCC[N+](CCO)(CCO)Cc1ccccc1.[Cl-] | 80.47 ± 4.61% | > 2.34 ^a | 29.04 ± 8.80 | 58.16 ± 7.23 | 3.34 | > 3.51 ^a | 
3 | CCCCCCCCCCCCCCCC[N+](CCO)(CCO)Cc1ccccc1.[Cl-] |  | > 3.34 ^a |  |  | −0.50 | 1.00 | 0.84
